Assay in all cases: binding assay
The target of one data set is T1, YTHDF2 (Homo sapiens) (UniProt Q9Y5A9).
T1 sequence: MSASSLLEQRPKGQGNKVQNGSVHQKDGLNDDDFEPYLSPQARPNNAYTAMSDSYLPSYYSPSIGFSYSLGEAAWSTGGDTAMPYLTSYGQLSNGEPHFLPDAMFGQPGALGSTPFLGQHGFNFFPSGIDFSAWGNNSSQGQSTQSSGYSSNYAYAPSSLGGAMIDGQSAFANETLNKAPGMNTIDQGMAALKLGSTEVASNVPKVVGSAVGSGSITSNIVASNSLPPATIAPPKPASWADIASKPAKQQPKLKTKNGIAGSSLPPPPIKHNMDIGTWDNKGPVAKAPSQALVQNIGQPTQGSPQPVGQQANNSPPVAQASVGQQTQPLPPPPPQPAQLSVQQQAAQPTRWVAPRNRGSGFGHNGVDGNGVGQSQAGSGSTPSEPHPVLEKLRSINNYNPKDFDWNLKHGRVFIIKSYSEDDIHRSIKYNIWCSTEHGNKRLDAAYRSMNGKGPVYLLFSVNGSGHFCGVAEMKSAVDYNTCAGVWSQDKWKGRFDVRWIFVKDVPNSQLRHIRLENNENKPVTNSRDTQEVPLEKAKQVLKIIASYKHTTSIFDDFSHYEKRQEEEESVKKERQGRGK
To be noted: 4SU, PAR-CLIP, protein in cells, protein details: FLAG, stably expressed in 293T.

Another data set concerns the target T2, YTHDF3 (Homo sapiens) (UniProt Q7Z739).
T2 sequence: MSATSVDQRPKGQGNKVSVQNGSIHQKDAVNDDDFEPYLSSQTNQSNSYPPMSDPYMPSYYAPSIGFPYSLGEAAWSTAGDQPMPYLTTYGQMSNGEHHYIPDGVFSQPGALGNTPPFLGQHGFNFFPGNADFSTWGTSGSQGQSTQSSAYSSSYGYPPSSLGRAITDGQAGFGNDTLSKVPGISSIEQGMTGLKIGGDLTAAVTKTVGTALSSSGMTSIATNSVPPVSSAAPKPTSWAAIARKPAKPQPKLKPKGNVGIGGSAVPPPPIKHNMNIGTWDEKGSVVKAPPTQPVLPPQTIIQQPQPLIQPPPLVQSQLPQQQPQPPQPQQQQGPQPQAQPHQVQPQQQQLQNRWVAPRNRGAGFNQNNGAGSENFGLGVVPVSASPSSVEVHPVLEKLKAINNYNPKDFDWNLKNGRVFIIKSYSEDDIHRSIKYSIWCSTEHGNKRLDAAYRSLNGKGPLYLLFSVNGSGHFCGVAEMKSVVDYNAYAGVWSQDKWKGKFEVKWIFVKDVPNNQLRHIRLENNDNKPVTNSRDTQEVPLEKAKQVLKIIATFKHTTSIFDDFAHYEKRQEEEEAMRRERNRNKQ
Conditions: m6A in RAC motifs; 4SU; PAR-CLIP, infected 293T; four clusters bound; protein in cells; protein details: FLAG, stably expressed in 293T.

For the next data set, the target named is T3, YTHDF1 (Homo sapiens) (UniProt Q9BYJ9).
T3 sequence: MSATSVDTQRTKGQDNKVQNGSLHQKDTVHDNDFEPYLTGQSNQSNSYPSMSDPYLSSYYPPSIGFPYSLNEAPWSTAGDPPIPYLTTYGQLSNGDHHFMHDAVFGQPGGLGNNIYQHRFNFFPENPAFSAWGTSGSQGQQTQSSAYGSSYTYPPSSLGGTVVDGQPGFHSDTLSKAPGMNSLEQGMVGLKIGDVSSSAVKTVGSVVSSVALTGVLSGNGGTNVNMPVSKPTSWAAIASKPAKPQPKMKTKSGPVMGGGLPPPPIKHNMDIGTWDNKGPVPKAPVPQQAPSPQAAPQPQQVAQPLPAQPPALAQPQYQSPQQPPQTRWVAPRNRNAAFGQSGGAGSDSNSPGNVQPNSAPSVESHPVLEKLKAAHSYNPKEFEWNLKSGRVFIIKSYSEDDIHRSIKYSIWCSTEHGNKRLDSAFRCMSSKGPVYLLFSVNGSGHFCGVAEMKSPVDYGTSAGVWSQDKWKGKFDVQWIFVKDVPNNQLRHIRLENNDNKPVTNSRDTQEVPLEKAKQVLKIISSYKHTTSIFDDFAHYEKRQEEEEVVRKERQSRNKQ
To be noted: 4SU, PAR-CLIP, protein in cells, protein details: FLAG, stably expressed in 293T.

Setting [1] is: m6A in RAC motifs, infected 293T, four clusters bound.
Where [2] appears, read: m6A at A3, only the motif is given.
Where [3] appears, read: m6A at A3, intense site, absent in NL4-3 and JR-CSF, only the motif is given.

For at least one entry, the source does not settle the construct or the ends of the probe. At least one result comes from cells or an extract, where the contact may be indirect. Tags and fusion partners may be left off the protein sequences shown.

For the sequence “GGAUCCUUAGCACUUAUCUGGGACGAUCUGCGGAGCCUGUGCCUCUUCAGCUACCACCGCUUGAGAGACUUACUCUUGAUUGUAACGAGGAUUGUGGAACUUCUGGGACGCAGGGGGUGGGAAGCCCUCAAAUAUUGGUGGAAUCUCCUACAGUAUUGGAGUCAGGAACUAAAGAAUAGUGCUGUUAACUUGCUCAAUGCCACAGCCAUAGCAGUAGCUGAGGGGACAGAUAGGGUUAUAGAAGUAUUACAAGCAGCUUAUAGAGCUAUUCGCCACAUACCUAGAAGAAUAAGACAGGGCUUGGAAAGGAUUUUGCUAUAAGAUGGGUGGCAAGUGGUCAAAAAGUAGUGUGAUUGGAUGGCCUGCUGUAAGGGAAAGAAUGAGACGAGCUGAGCCAGCAGCAGAUGGGGUGGGAGCAGUAUCUCGAGACCUAGAAAAACAUGGAGCAAUCACAAGUAGCAAUACAGCAGCUAACAAUGCUGCUUGUGCCUGGCUAGAAGCACAAGAGGAGGAAGAGGUGGGUUUUCCAGUCACACCUCAGGUACCUUUAAGACCAAUGACUUACAAGGCAGCUGUAGAUCUUAGCCACUUUUUAAAAGAAAAGGGGGGACUGGAAGGGCUAAUUCACUCCCAAAGAAGACAAGAUAUCCUUGAUCUGUGGAUCUACCACACACAAGGCUACUUCCCUGAUUGGCAGAACUACACACCAGGGCCAGGGGUCAGAUAUCCACUGACCUUUGGAUGGUGCUACAAGCUAGUACCAGUUGAGCCAGAUAAGGUAGAAGAGGCCAAUAAAGGAGAGAACACCAGCUUGUUACACCCUGUGAGCCUGCAUGGAAUGGAUGACCCUGAGAGAGAAGUGUUAGAGUGGAGGUUUGACAGCCGCCUAGCAUUUCAUCACGUGGCCCGAGAGCUGCAUCCGGAGUACUUCAAGAACUGCUGACAUCGAGCUUGCUACAAGGGACUUUCCGCUGGGGACUUUCCAGGGAGGCGUGGCCUGGGCGGGACUGGGGAGUGGCGAGCCCUCAGAUGCUGCAUAUAAGCAGCUGCUUUUUGCCUGUACUGGGUCUCUCUGGUUAGACCAGAUCUGAGCCUGGGAGCUCUCUGGCUAACUAGGGAACCCACUGCUUAAGCCUCAAUAAAGCUUGCCUUGAGUGCUUCAAGUAGUGUGUGCCCGUCUGUUGUGUG [HIV-1 NL4-3 3' region (env/rev, nef, U3/NF-kB, TAR clusters)]”, the binding result with YTHDF2 (Homo sapiens) (setting [1]), with YTHDF3 (Homo sapiens) and with YTHDF1 (Homo sapiens) (setting [1]) was “binds” each time.
Turning to GGACA [HIV-1 JR-CSF novel site JR-CSF1], the binding result in the data set with YTHDF2 (Homo sapiens) (setting [2]) and with YTHDF1 (Homo sapiens) (setting [2]) was “binds” each time.
Consider GGACC [HIV-1 BaL novel site BaL1], for which the binding result with YTHDF2 (Homo sapiens) (setting [3]) and with YTHDF1 (Homo sapiens) (setting [3]) was “binds” throughout.
Turning to GGACU [HIV-1 JR-CSF novel site JR-CSF2], the binding result with YTHDF2 (Homo sapiens) (setting [2]) and in the data set with YTHDF1 (Homo sapiens) (setting [2]) was “binds” each time.

(Values after patent US20190100761A1, “COMPOSITIONS AND METHODS FOR ENHANCED GENE EXPRESSION AND VIRAL REPLICATION” (priority 2016, published 2019).)
